Results of unrelated studies side by side (data: NIAID ChemDB).

Common to all: tests in culture; agent: Herpes simplex virus 2; endpoint: EC50

ECn is the concentration giving n% inhibition of infection, replication or growth.

structure | strain or isolate | cell line | method | result
Clc1ccc(-c2cc3ccccn3c2)cc1Cl | 186 | VERO | plaque count | >100 µM
Cc1ccc(C)c(NC(=O)CN2C(=O)c3ccccc3S2(=O)=O)c1 | G | HEL | cytopathic effect | >100 µM
C=C(C)[C@@H]1CC[C@]2(CO)CC[C@]3(C)[C@H](CC[C@@H]4[C@@]5(C)CC[C@H](O)C(C)(C)[C@@H]5CC[C@]43C)[C@@H]12 | G | VERO | plaque count | 4.15 µg/mL
O=C(c1ccc([N+](=O)[O-])cc1)n1c(-c2ccccc2[N+](=O)[O-])nc2ccccc21 | G |  |  | >100 µg/mL
Nc1nc2c(ncn2COCCO)c(=O)[nH]1 | R-325 (acyclovir-resistant) | HFF | cytopathic effect | >50 µg/mL
Clc1cccn2cc(-c3ccccc3)cc12 | 186 | VERO | plaque count | >100 µM
Nc1ncnc2c1ncn2C[C@@H](CO)OCP(=O)(O)O | 186 (TK-) | WI-38 | plaque count | 3 µM
OC[C@H]1O[C@H](c2cc(F)c(F)cc2F)C[C@@H]1O | G | E6SM | cytopathic effect | >400 µg/mL
COc1cc2c(cc1Oc1ccccc1)OC1C3=C(OCC21)C(=O)c1ccccc1C3=O | G | VERO | plaque count | 0.18 µg/mL
Nc1ncnc2c1ncn2[C@@H]1C[C@H](COP(=O)(O)O)[C@@H](O)[C@H]1O |  | PRK | cytopathic effect | ≥400 µg/mL
C/C(=N/Nc1nc(-c2ccccc2)cs1)c1ccc(NC(=O)CN2C(=O)c3ccccc3S2(=O)=O)cc1 | G | HEL | cytopathic effect | 20 µM
COc1cc(OC)c(/C=N/N=C(/N)NO)c(OC)c1.Cc1ccc(S(=O)(=O)O)cc1 | G | VERO | plaque count | >50 µM
COC(=O)[C@H](C)NP(=O)(OC[C@H]1C/C1=C/n1cnc2c(=O)[nH]c(N)nc21)Oc1ccccc1 |  | HFF | cytopathic effect | 181 µM
Nc1nc2c(ncn2COCCO)c(=O)[nH]1 | G | VERO | plaque count | 0.5 µM
Nc1nc2c(ncn2COCCO)c(=O)[nH]1 |  | VERO | cytopathic effect | 1.82 µM
O=C(c1ccncc1)n1c(-c2ccc(Cl)cc2)nc2ccccc21 | G |  |  | >20 µg/mL
COc1ccc(/C=N/NC(=O)c2ccccc2S(=O)(=O)NC(C)C)cc1 | G | HEL | cytopathic effect | >100 µM
Nc1nc(=S)n([C@H]2C[C@H](O)[C@@H](CO)O2)cc1Cl | G | MRC-5 | plaque count | 72.3 µM
Fc1cccn2cc(-c3ccccc3)cc12 | 186 | VERO | plaque count | >100 µM
Nc1nc(=S)n([C@@H]2O[C@H](CO)[C@@H](O)[C@@H]2O)cc1F | G | MRC-5 | plaque count | >361 µM
Cc1cc([C@H]2C[C@H](O)[C@@H](CO)O2)c(Cl)cc1F | LYONS | E6SM | cytopathic effect | >400 µg/mL
Nc1nc2c(ncn2CC[C@H](O)CO)c(=O)[nH]1 | 91075 | SIRC | plaque count | 13 µM
Fc1cccc(-c2cc3ccccn3c2)c1 | 186 | VERO | plaque count | >100 µM
CS(=O)(=O)Cc1cn([C@H]2C[C@H](O)[C@@H](CO)O2)c(=O)[nH]c1=O | LYONS G 196 | PRK | cytopathic effect | >400 µg/mL
O=C(c1ccc([N+](=O)[O-])cc1)n1c(-c2cccc([N+](=O)[O-])c2)nc2ccccc21 | G |  |  | >20 µg/mL
COC(=O)[C@H](C)NP(=O)(OCC1C/C1=C/n1cnc2c(NC3CC3)nc(N)nc21)Oc1ccccc1 |  | HFF | plaque count | 0.8 µM
OC[C@H]1OC(c2c(-c3ccccc3)cc3c(Cl)cc(C(F)(F)F)cn23)[C@H](O)[C@@H]1O | 186 | VERO | plaque count | >100 µM
Cc1cc([C@@H]2C[C@H](O)[C@@H](CO)O2)c(Cl)cc1F | G | E6SM | cytopathic effect | >400 µg/mL
O=c1[nH]c(=O)n([C@H]2C[C@H](O)[C@@H](CO)O2)cc1/C=C/Br | G | HEL | cytopathic effect | 183 µM
Cc1cn([C@H]2C[C@H](O[Si]34OCCN(CCO3)CCO4)[C@@H](CO)O2)c(=O)[nH]c1=O |  | HFF | cytopathic effect | >100 µg/mL
Cc1cc([C@H]2C[C@H](O)[C@@H](CO)O2)c(F)cc1Cl | LYONS | E6SM | cytopathic effect | >400 µg/mL
NC1=NCCN1CC(=O)O | MS | VERO | cytopathic effect | 12400 µM
COC(=O)[C@H](C)NP(=O)(OC[C@H]1C/C1=C/n1cnc2c(OC)nc(N)nc21)Oc1ccccc1 |  | HFF | plaque count | 0.88 µM
O=C(O)c1ccccc1-c1nc2ccccc2n1C(=O)c1ccc([N+](=O)[O-])cc1 | G |  |  | >100 µg/mL
CC(=O)c1c(-c2ccc(C#N)cc2)cc2ccccn12 | 186 | VERO | plaque count | 40 µM
O=C(O)c1ccccc1-c1nc2ccccc2n1C(=O)c1ccccc1Br | G |  |  | >100 µg/mL
COc1nc(N)nc2c1ncn2C=C1CC1CO |  | HFF | cytopathic effect | 364 µM
Cc1cn([C@@H]2O[C@H](CO)[C@@H](O)[C@@H]2F)c(=O)[nH]c1=O | G | VERO | plaque count | 0.8 µM
Fc1ccccc1-c1cc2ccccn2c1 | 186 | VERO | plaque count | 50 µM
O=C(c1ccc([N+](=O)[O-])cc1)n1c(-c2ccccc2)nc2ccccc21 | G |  |  | >20 µg/mL
OC[C@H]1O[C@@H](c2cc(I)c(F)cc2F)C[C@@H]1O | G | E6SM | cytopathic effect | >400 µg/mL
COc1cc(OC)c(OC)cc1/C=N/N=C(/N)NO.Cc1ccc(S(=O)(=O)O)cc1 | G | VERO | plaque count | >50 µM
OC[C@H]1O[C@@H](c2cc(Br)c(F)cc2F)C[C@@H]1O | G | E6SM | cytopathic effect | >400 µg/mL
Nc1nc(=S)n([C@H]2C[C@H](O)[C@@H](CO)O2)cc1Br | G | MRC-5 | plaque count | 8.41 µM
OC[C@H]1O[C@@H](c2cc(F)c(F)cc2F)C[C@@H]1O | G | E6SM | cytopathic effect | >400 µg/mL
Nc1nc2c(ncn2COCCO)c(=O)[nH]1 | 91075 | BHK | plaque count | 0.3 µM
CC(=O)OC[C@H]1O[C@@H](n2cc(-c3cc(-c4ccc(C(C)C)cc4)no3)c(=O)[nH]c2=O)CC[C@@H]1O |  |  |  | 0.07 µg/mL
O=C(c1ccc([N+](=O)[O-])cc1)n1c(-c2ccc([N+](=O)[O-])cc2)nc2ccccc21 | G |  |  | 50 µg/mL
COC(=O)[C@H](C)NP(=O)(OC[C@H]1C/C1=C/n1cnc2c(N)nc(N)nc21)Oc1ccccc1 |  | HFF | plaque count | 12.7 µM

The last 3 rows once more:

{"structure": "CC(=O)OC[C@H]1O[C@@H](n2cc(-c3cc(-c4ccc(C(C)C)cc4)no3)c(=O)[nH]c2=O)CC[C@@H]1O", "result": "0.07 µg/mL"}
{"structure": "O=C(c1ccc([N+](=O)[O-])cc1)n1c(-c2ccc([N+](=O)[O-])cc2)nc2ccccc21", "strain or isolate": "G", "result": "50 µg/mL"}
{"structure": "COC(=O)[C@H](C)NP(=O)(OC[C@H]1C/C1=C/n1cnc2c(N)nc(N)nc21)Oc1ccccc1", "cell line": "HFF", "method": "plaque count", "result": "12.7 µM"}

Neighbouring rows are from separate reports. An empty or dashed field is not shown.